A mixed list of measured activities; the numbers were collected in NIAID ChemDB.

Common to all: growth or infection tests; organism: Mycobacterium tuberculosis

Inhibition is in % at the dose shown (toxicity tests: loss of growth or viability). MIC bound: limit read from a one-dose screen. A number after MIC or MFC names an inhibition level or a share of isolates. Lines come from different laboratories, so protocols vary. An empty or dashed field is not shown.

compound,read by,mutations,conditions,measure,dose,strain or isolate,result
CO/C(=N\N=C\c1ccc(Cl)cc1)c1ccncc1,-,-,-,MIC,-,16PI,>20 µg/mL
O=C(Nc1ccc(C2=NCCCN2)cc1)c1ccc(C(=O)Nc2ccc(C3=NCCCN3)cc2)nc1,-,-,-,MIC,-,H37Rv,12.5 µg/mL
CCOc1ccc(/C=N/NC(=O)c2ccncc2)cc1,-,-,-,MIC,-,-,0.1 µg/mL
O=C(NCc1ccc(Cl)cc1)c1nnc(-c2ccccn2)[nH]c1=O,-,-,-,MIC,-,H37Rv,>32 µg/mL
O=[N+]([O-])c1ccc(C2=NOC3CCCCC23)o1,-,-,-,MIC,-,-,1 µg/mL
C=CC(O)C#CC#CC(O)/C=C\CCCCCCC,resazurin,-,-,MIC90,-,H37Rv,26.7 µg/mL
COC(=O)C1=CO[C@@H](C)[C@@H]2CN3CCc4c([nH]c5ccc(OC)cc45)[C@@H]3C[C@H]12,BACTEC,-,-,MIC bound,-,H37Rv,>12.8 µg/mL
NC(=O)c1cnccn1,-,-,-,MIC,-,TMC311,>6400 µg/mL
CC1=CCC(S(=O)(=O)NNC(=O)c2ccncc2)CC1,-,-,-,MIC,-,-,10 µg/mL
CCOC([O-])=N/C(C)=N/[n+]1ccccc1,BACTEC,-,-,MIC,-,H37Rv,≥12.5 µg/mL
C[C@H](N)C(=O)N[C@@H](CB1OC2CC3CC(C3(C)C)[C@@]2(C)O1)c1ccccc1,-,-,-,MIC,-,H37Rv,≤500 µg/mL
CC(C)OC1Oc2ccc([N+](=O)[O-])cc2C(=O)/C1=C\Nc1ccc(C(=O)O)c(O)c1,-,-,-,MIC,-,H37Rv,25 µg/mL
C=CC/C(=N\OS(=O)(=O)O)S[C@@H]1O[C@H](CO)[C@@H](O)[C@H](O)[C@H]1O,resazurin,-,-,inhibition,6.25 µg/mL,H37Rv,-9%
CC(C)N=c1cc2n(-c3cccnc3)c3ccccc3nc-2cc1Nc1cccnc1,resazurin,-,-,MIC90,-,H37Rv,1.23 µg/mL
COc1ccc(C2NC(=O)N(c3ccc(F)c(Cl)c3)C(C)=C2C(=O)Nc2ccc(C)cc2)cc1OC,resazurin,-,-,MIC,-,H37Rv,>6.25 µg/mL
CO/C(=N\N=C\c1ccc(Cl)cc1Cl)c1ccncc1,-,-,-,MIC,-,H37Rv,>20 µg/mL
COc1c(N2CC[C@@H](C(C)(C)N)C2)c(F)cc2c(=O)c3c(=O)[nH]sc3n(C3CC3)c12,-,-,-,MIC,-,Pan-susceptible clinical isolate 4,0.06 µg/mL
CC1=CCC2C(C1)C2(C)C,resazurin,-,-,MIC,-,H37Rv,8.16 µg/mL
O=C(NCc1ccc(F)cc1)c1nnc(-c2ccccn2)[nH]c1=O,-,-,-,MIC,-,H37Rv,>32 µg/mL
COc1ccc(/C=C2\N=C(c3ccco3)OC2=O)cc1Br,BACTEC,-,-,MIC bound,-,H37Rv,>12.5 µg/mL
NNC(=O)c1ccncc1,-,-,-,MIC,-,Isolate M,>0.2 µg/mL
CO/C(=N\N=C\c1ccc(C(F)(F)F)cc1)c1ccncc1,-,-,-,MIC,-,H37Rv,>20 µg/mL
CCOC1Oc2ccccc2C(=O)/C1=C\Nc1cccc(C(=O)O)c1O,-,-,-,MIC,-,H37Rv,>100 µg/mL
N=c1ccc(=Nc2ccc(N)c3c(O)c4ccccc4c(O)c23)c2c(=O)c3ccccc3c(=O)c1=2,BACTEC,-,-,inhibition,12.5 µg/mL,H37Rv,-21%
O=[N+]([O-])c1ccc(-c2nocc2-c2ccccc2)o1,-,-,-,MIC,-,-,3 µg/mL
CCC[N+]1=C/c2ccccc2OC(=O)/C=C\1[O-],BACTEC,-,-,MIC,-,H37Rv,≥12.5 µg/mL
C/C(=N\NC(=O)c1ccncc1)c1ccc(Cl)cc1Cl,-,-,-,MIC,-,16PI,>20 µg/mL
COc1ccccc1CCNCCNCCc1ccccc1Cl,-,-,-,MIC,-,-,50 µM
CO/C(=N\N=C\c1ccc(F)cc1)c1ccncc1,-,-,-,MIC,-,H37Rv,>20 µg/mL
CCN1C[C@H](C)O[C@@H](O[C@H]2[C@H](C)[C@@H](O[C@@H]3O[C@H](C)CC(=O)[C@H]3O)[C@@H](C)C[C@](C)(OC(=O)N3C[C@@H](C)O[C@@H](C)C3)C(=O)[C@H](C)[C@H](OC(=O)CC(C)C)[C@@H](C)[C@@H]([C@@H](C)CO[C@@H]3O[C@H](C)[C@@H](O)[C@@H](OC)[C@H]3OC)OC(=O)[C@@H]2C)C[C@H]1C,resazurin,-,-,MIC,-,H37Rv,1.12 µM
O=C(NCc1cccc(Cl)c1)c1nnc(-c2ccccn2)[nH]c1=O,-,-,-,MIC,-,H37Rv,>32 µg/mL
O=[N+]([O-])c1ccc(-c2ccon2)o1,-,-,-,MIC,-,-,1 µg/mL
Nc1nc(N)c(N=Nc2ccc(Cl)cc2)c(=O)[nH]1,BACTEC,-,-,inhibition,12.5 µg/mL,H37Rv,47%
CC1=C(C(=O)Nc2ccc(C)cc2)C(c2ccccc2[N+](=O)[O-])NC(=O)N1c1ccc(F)c(Cl)c1,resazurin,-,-,MIC,-,H37Rv,>6.25 µg/mL
CC1(C)C2CC3OB(C[C@@H](Cc4ccccc4)NC(=O)[C@@H](N)Cc4c[nH]c5ccccc45)O[C@]3(C)C1C2,-,-,-,MIC,-,H37Rv,≤50 µg/mL
CC(C)=CCC1C(=O)C(CC=C(C)C)(CC=C(C)C)C(O)C(C(=O)C(C)C)C1O,-,-,-,MIC,-,Isolate I,20.3 µg/mL
C=C1C(=O)O[C@H]2/C=C(/C)[C@H](O)/C=C\[C@@](C)(O)C[C@H](OC(=O)/C(C)=C\C)[C@H]12,BACTEC,-,-,inhibition,12.5 µg/mL,H37Rv,13%
CCn1cc(C(=O)O)c(=O)c2cc(F)c(N3CCNC(C)C3)c(F)c21,-,-,-,MBC,-,-,2 µg/mL
C[C@H](N)C(=O)N[C@@H](CB1OC2CC3CC(C3(C)C)[C@@]2(C)O1)Cc1ccccc1,agar,-,-,MIC,-,H37Rv,≤500 µg/mL
CC12Nc3c(Cl)cc(Cl)cc3N1C(=O)c1ccccc12,resazurin,-,-,inhibition,6.25 µg/mL,H37Rv,16%
Cc1cc(-c2cc3c(cc2F)c(=O)c(C(=O)O)cn3C2CC2)cc(C)n1,-,-,-,MIC,-,1773-6,4 µg/mL
CC(C)C1/C(=N/O)CC(c2ccccc2)N(N=O)C1c1ccccc1,resazurin,-,-,inhibition,6.25 µg/mL,H37Rv,46%
COc1cccc(/C=N/NC(=O)c2cccnc2)c1,-,-,-,MIC,-,-,0.001 µg/mL
CO[C@@H]1[C@H](O)[C@@H](C)O[C@@H](OC[C@H](C)[C@H]2OC(=O)[C@H](C)[C@@H](O[C@H]3C[C@@H](C)N(C)C[C@H](C)O3)[C@H](C)[C@@H](O[C@@H]3O[C@H](C)CC(=O)[C@H]3O)[C@@H](C)C[C@](C)(OC(=O)N3C[C@@H](C)O[C@@H](C)C3)C(=O)[C@H](C)[C@H](OC(=O)CC(C)C)[C@H]2C)[C@@H]1OC,resazurin,-,-,MIC,-,H37Rv,1.26 µM
O=C(N/N=C/c1ccc2c(c1)OCO2)c1ccncc1,-,-,-,MIC,-,-,1 µg/mL
NC[C@H]1O[C@H](O[C@H]2[C@H](O)[C@@H](O[C@H]3O[C@H](CO)[C@@H](O)[C@H](N)[C@H]3O)[C@H](N)C[C@@H]2N)[C@H](O)[C@@H](O)[C@@H]1O,-,-,-,MIC,-,H37Rv,5 µg/mL
COc1ccc(C/C=C/C=C/C(=O)NCC(C)C)cc1,resazurin / absorbance,-,-,MIC90,-,H37Rv,8 µg/mL
COc1ccccc1CNC(=O)c1nnc(-c2ccccn2)[nH]c1=O,-,-,-,MIC,-,H37Rv,32 µg/mL
CCCCOc1ccc(-c2c(COC(=O)NC)c(COC(=O)NC)c(C)n2C)cc1,resazurin,-,-,MIC bound,-,H37Rv,>6.25 µg/mL
CNc1cc2nc3ccccc3n(-c3ccc(Cl)cc3)c-2cc1=NC(C)C,resazurin,-,-,MIC90,-,H37Rv,21.23 µg/mL
CCOC1Oc2ccc([N+](=O)[O-])cc2C(=O)/C1=C\Nc1ccc(C(=O)O)c(O)c1,-,-,-,MIC,-,H37Rv,10 µg/mL
CO[C@@H]1[C@H](O)[C@@H](C)O[C@@H](OC[C@H](C)[C@H]2OC(=O)[C@H](C)[C@@H](O[C@H]3C[C@@H](C)N(C)C[C@H](C)O3)[C@H](C)[C@@H](O[C@@H]3O[C@H](C)C/C(=C\C#N)[C@H]3O)[C@@H](C)C[C@](C)(OC(=O)N3C[C@H](C)O[C@@H](C)C3)C(=O)[C@H](C)[C@H](OC(=O)CC(C)C)[C@H]2C)[C@@H]1OC,resazurin,-,-,MIC,-,H37Rv,0.55 µM
CCc1conc1-c1ccc([N+](=O)[O-])o1,-,-,-,MIC,-,-,0.3 µg/mL
NNC(=O)c1cnn(-c2ccc(N(CCO)CCO)nn2)c1N,BACTEC,-,-,inhibition,12.5 µg/mL,H37Rv,15%
CO/C(=N\N=C\c1cc(OC)ccc1OC)c1ccncc1,-,-,-,MIC,-,H37Rv,>20 µg/mL
COc1cc(Nc2nc(NS(=O)(=O)c3cc(C)c(Cl)cc3S)n[nH]2)cc(OC)c1OC,BACTEC,-,-,inhibition,12.5 µg/mL,H37Rv,15%
O=C(NCc1cccc(C(F)(F)F)c1)c1nnc(-c2ccccn2)[nH]c1=O,-,-,-,MIC,-,H37Rv,32 µg/mL
CO[C@H]1/C=C/O[C@@]2(C)Oc3c(C)c(O)c4c(O)c(c(/C=N/N5CCN(C)CC5)c(O)c4c3C2=O)NC(=O)/C(C)=C\C=C\[C@H](C)[C@H](O)[C@@H](C)[C@@H](O)[C@@H](C)[C@H](OC(C)=O)[C@@H]1C,resazurin,-,-,MIC,-,H37Rv,2 µM
S=c1[nH][nH]c(=S)c2c1[nH]c(=S)n2Cc1ccccc1,BACTEC,-,-,MIC bound,-,H37Rv,>6.25 µg/mL
C/C(=N\NC(=O)c1ccncc1)c1cccc(F)c1,-,-,-,MIC,-,6 PI,>20 µg/mL
CCN(CC)CCSc1nc2c([N+](=O)[O-])cccc2[nH]1,resazurin,-,-,inhibition,6.25 µg/mL,H37Rv,10%
COc1ccc(/C(C)=N/NC(=O)c2ccncc2)cc1OC,-,-,-,MIC,-,6 PI,>20 µg/mL
CO[C@H]1/C=C/O[C@@]2(C)Oc3c(C)c(O)c4c(O)c(cc(OCC(=O)O)c4c3C2=O)NC(=O)/C(C)=C\C=C\[C@H](C)[C@H](O)[C@@H](C)[C@@H](O)[C@@H](C)[C@H](OC(C)=O)[C@@H]1C,-,-,-,MIC,-,H37RV ATCC9360,0.05 µg/mL
CCCNC1=C(C)C(=O)C2=C(C1=O)[C@H](COC(N)=O)[C@]1(OC)[C@@H]3N[C@@H]3CN21,BACTEC,-,-,MIC bound,-,H37Rv,≤12.5 µg/mL
O=C(NCc1ccc(Br)cc1)c1nnc(-c2ccccn2)[nH]c1=O,-,-,-,MIC,-,H37Rv,>32 µg/mL
CCCCCCOC1Oc2ccc(Cl)cc2C(=O)/C1=C\Nc1ccc(C(=O)O)c(O)c1,-,-,-,MIC,-,H37Rv,50 µg/mL
CCCCCCC/C=C\C(O)C#CC#CC(O)CCOC,resazurin,-,-,MIC90,-,H37Rv,>60 µg/mL
[O-]c1ccccc1N=Nc1ccccc1[O-].[O]=[V+2],BACTEC,-,-,MIC,-,H37Rv,32 µg/mL
NNC(=O)c1ccncc1,broth dilution,INH RIF STR resistant,14 d,MIC,-,9449/2006,16 µM
CC(C)N=c1cc2n(-c3cccnc3)c3ccccc3nc-2cc1Nc1ccc(Cl)cc1,resazurin,-,-,MIC90,-,H37Rv,0.57 µg/mL
O=c1oc2c(ccc3ccccc32)c(O)c1-c1cccc2ccccc12,BACTEC,-,-,MIC bound,-,H37Rv,>12.5 µg/mL
O=c1[nH][nH]c(=O)c2ncccc12,-,-,-,MIC,-,-,>200 µg/mL
COc1ccc(C2NC(=O)N(c3ccc(F)c(Cl)c3)C(C)=C2C(=O)Nc2ccc(C)cc2)cc1,resazurin,-,-,MIC,-,H37Rv,>6.25 µg/mL
O=C(NCc1ccccc1Br)c1nnc(-c2ccccn2)[nH]c1=O,-,-,-,MIC,-,H37Rv,>32 µg/mL
CCN1C[C@H](C)O[C@@H](O[C@H]2[C@H](C)[C@@H](O[C@@H]3O[C@H](C)C/C(=C\C#N)[C@H]3O)[C@@H](C)C[C@](C)(OC(=O)N3C[C@@H](C)O[C@@H](C)C3)C(=O)[C@H](C)[C@H](OC(=O)CC(C)C)[C@@H](C)[C@@H]([C@@H](C)CO[C@@H]3O[C@H](C)[C@@H](O)[C@@H](OC)[C@H]3OC)OC(=O)[C@@H]2C)C[C@H]1C,resazurin,-,-,MIC,-,H37Rv,0.703 µM
CC(=O)Oc1c(C)c2c(O)c3c1C1=C(OCOC1=C(C)C3=O)C(C)=CC(C)(O)C(O)C(C)C(O)C1C(=O)OC(C(C)C1O)C(C)(O)/C=C\C=C(\C)C(=O)N2,BACTEC,-,-,MIC,-,H37Rv,≥12.8 µg/mL
O=C(NCc1cccc(Br)c1)c1nnc(-c2ccccn2)[nH]c1=O,-,-,-,MIC,-,H37Rv,>32 µg/mL